Pooled drug test results. Numbers come from NIAID ChemDB, via PubChem.

Common to all: tests in culture; species: Varicella zoster virus; measure: EC50

Lines come from different laboratories, so protocols vary. ECn is the concentration giving n% inhibition of infection, replication or growth.

{"smiles": "O=c1[nH]c(=O)n([C@@H]2O[C@H](CO)[C@@H](O)[C@@H]2O)cc1/C=C/Br", "strain": "BVaraU-resistant", "cell line": "HEL", "method": "plaque count", "value": ">20 µg/mL"}
{"smiles": "Cc1cc(C)c2c(c1)COP(=O)(OC[C@H]1O[C@@H](n3cc(/C=C/Br)c(=O)[nH]c3=O)C[C@@H]1O)O2", "strain": "OKA", "cell line": "HELF", "method": "plaque count", "value": "0.019 µg/mL"}
{"smiles": "Nc1nc2c(ncn2COC(CO)CO)c(=O)[nH]1", "strain": "OKA", "cell line": "HEL", "method": "plaque count", "value": "0.32 µg/mL"}
{"smiles": "CCCCCCCCCC(=O)O[C@H]1C[C@H](n2cc(/C=C/Br)c(=O)[nH]c2=O)O[C@@H]1COP1(=O)OCc2cccc(C)c2O1", "strain": "OKA", "cell line": "HELF", "method": "plaque count", "value": "0.046 µg/mL"}
{"smiles": "Nc1ncnc2c1ncn2CCOCP(=O)(O)O", "strain": "Oka PFA-resistant/A", "cell line": "HEL", "method": "cytopathic effect", "value": "86.7 µM"}
{"smiles": "Cc1cn([C@@H]2O[C@H](CO)[C@@H](O)[C@@H]2O)c(=O)[nH]c1=O", "strain": "07/1 (TK-)", "cell line": "HEL", "method": "plaque count", "value": "114.3 µM"}
{"smiles": "C[C@@H](N)C(=O)O[C@H]1C[C@H](n2cc(/C=C/Br)c(=O)[nH]c2=O)O[C@@H]1COP1(=O)OCc2ccccc2O1", "strain": "OKA", "cell line": "HELF", "method": "plaque count", "value": "0.031 µg/mL"}
{"smiles": "Nc1nccc2c1ncn2C[C@@H](CO)OCP(=O)(O)O", "strain": "YS (TK+)", "cell line": "HEL", "method": "plaque count", "value": "0.21 µM"}
{"smiles": "Cc1cccc2c1OP(=O)(OC[C@H]1O[C@@H](n3cc(/C=C/Br)c(=O)[nH]c3=O)C[C@@H]1OC(=O)[C@@H](N)Cc1ccccc1)OC2", "strain": "OKA", "cell line": "HELF", "method": "plaque count", "value": "0.031 µg/mL"}
{"smiles": "Nc1ncc2c(ncn2COC(CO)CO)n1", "strain": "YS/R (TK-)", "cell line": "HEL", "method": "plaque count", "value": "0.36 µM"}
{"smiles": "O=C(O)P(=O)(O)O", "strain": "PCV-resistant/A", "cell line": "HEL", "method": "plaque count", "value": "98 µg/mL"}
{"smiles": "Nc1ccn(C[C@H]2COP(=O)(O)CO2)c(=O)n1", "strain": "YS/R (TK-)", "cell line": "HEL", "method": "plaque count", "value": "0.28 µM"}
{"smiles": "Cc1cccc2c1OP(=O)(OC[C@H]1O[C@@H](n3cc(/C=C/Br)c(=O)[nH]c3=O)C[C@@H]1OC(=O)CN)OC2", "strain": "OKA", "cell line": "HELF", "method": "plaque count", "value": "0.029 µg/mL"}
{"smiles": "Nc1nc2c(ncn2CCC(CO)CO)c(=O)[nH]1", "strain": "PCV-resistant/B", "cell line": "HEL", "method": "plaque count", "value": "2 µg/mL"}
{"smiles": "Nc1ncnc2c1ncn2[C@@H]1O[C@H](CO)[C@@H](O)[C@@H]1O", "strain": "07/1 (TK-)", "cell line": "HEL", "method": "plaque count", "value": "11.2 µM"}

Repeating the final 2 entries:

smiles	strain	cell line	method	value
Nc1nc2c(ncn2CCC(CO)CO)c(=O)[nH]1	PCV-resistant/B	HEL	plaque count	2 µg/mL
Nc1ncnc2c1ncn2[C@@H]1O[C@H](CO)[C@@H](O)[C@@H]1O	07/1 (TK-)	HEL	plaque count	11.2 µM